From patent US20070184519A1 (published 2007)

T1: HLA-DR DRB1*0101 (human)
T1 chain 1: not shown
T1 chain 2: not shown

T2: HLA-DR DRB1*0401 (human)
T2 chain 1: not shown
T2 chain 2: not shown

T3: HLA-DR DRB1*0404 (human)
T3 chain 1: not shown
T3 chain 2: not shown

T4: HLA-DR DRB1*0802 (human)
T4 chain 1: not shown
T4 chain 2: not shown

T5: HLA-DR DRB1*1101 (human)
T5 chain 1: not shown
T5 chain 2: not shown

T6: HLA-DR DRB1*1302 (human)
T6 chain 1: not shown
T6 chain 2: not shown

T7: HLA-DR DRB5*0101 (human)
T7 chain 1: not shown
T7 chain 2: not shown

T8: HLA-DR DRB1*0901 (human)
T8 chain 1: not shown
T8 chain 2: not shown

T9: HLA-DR DRB3*0101 (human)
T9 chain 1: not shown
T9 chain 2: not shown

T10: HLA-DR DRB4*0101 (human)
T10 chain 1: not shown
T10 chain 2: not shown


Tests used:
Experiment in all cases: competition with 125I probe, purified MHC II
HLA-DR DRB1*0101 (human) = target: T1, HLA-DR DRB1*0101 (human)
HLA-DR DRB1*0401 (human) = target: T2, HLA-DR DRB1*0401 (human)
HLA-DR DRB1*0404 (human) = target: T3, HLA-DR DRB1*0404 (human)
HLA-DR DRB1*0802 (human) = target: T4, HLA-DR DRB1*0802 (human)
HLA-DR DRB1*1101 (human) = target: T5, HLA-DR DRB1*1101 (human)
HLA-DR DRB1*1302 (human) = target: T6, HLA-DR DRB1*1302 (human)
HLA-DR DRB5*0101 (human) = target: T7, HLA-DR DRB5*0101 (human)
HLA-DR DRB1*0901 (human) = target: T8, HLA-DR DRB1*0901 (human)
HLA-DR DRB3*0101 (human) = target: T9, HLA-DR DRB3*0101 (human)
HLA-DR DRB4*0101 (human) = target: T10, HLA-DR DRB4*0101 (human)

Binder | IC50 (HLA-DR DRB1*0101 (human)) [nM] | IC50 (HLA-DR DRB1*0401 (human)) [nM] | IC50 (HLA-DR DRB1*0404 (human)) [nM] | IC50 (HLA-DR DRB1*0802 (human)) [nM] | IC50 (HLA-DR DRB1*1101 (human)) [nM] | IC50 (HLA-DR DRB1*1302 (human)) [nM] | IC50 (HLA-DR DRB5*0101 (human)) [nM] | IC50 (HLA-DR DRB1*0901 (human)) [nM] | IC50 (HLA-DR DRB3*0101 (human)) [nM] | IC50 (HLA-DR DRB4*0101 (human)) [nM]
GYKVLVLNPSVAAT (modifications not checked) [HCV.NS3.1248] | 1.4 | 7.5 | 33 | 63 | 75 | 8.6 | 3700 | – | – | –
PLGFFPDHQLDPAFGANSNNPDWDFNP (modifications not checked) [HBV Pre S1 21-47] | – | – | – | – | – | – | – | 15700 | 311 | 3140
